A mixed list of measured activities; the numbers were collected in NIAID ChemDB.

Shared fields: tests in culture; agent: Mycobacterium tuberculosis

Blank or dashed fields: not listed here. MIC50, MIC90 and the like: level of inhibition, or share of isolates inhibited. Percent inhibition refers to the dose given; in toxicity tests it is the harm to the cells. MIC bound: limit read from a one-dose screen. Conditions beyond the fields shown may differ between rows. ECn is the concentration giving n% inhibition of infection, replication or growth.

smiles	strain	method	conditions	read-out	dose	value
C/C(=N\NC(=O)c1ccncc1)c1ccc(Cl)cc1Cl	6 PI			MIC		>20 µg/mL
Cc1ccc(S(=O)(=O)NNC(=O)c2cc(C)c(C)cc2NCC(O)C(O)C(O)CO)cc1	H37Rv	BACTEC		MIC bound		>12.5 µg/mL
N/C(=N\N=C\c1cc(Cl)ccc1O)SCc1cccc(Cl)c1	H37Rv	broth dilution	21 d	MIC		32 µM
O=C(N=Nc1c(O)[nH]c2ccccc12)c1ccncc1	Human sensitive isolate			MIC		2.7 µg/mL
CC(C)[C@H]1CC[C@H]2[C@@H]3C=C[C@](C)(O)CC[C@]3(C)CC[C@]12C(=O)O	CIBIN 99	resazurin		MIC		50 µg/mL
CCCCn1c(-c2ccccc2)cs/c1=N\N=C1/C(=O)Nc2ccccc21	H37Rv			EC50		>12 µg/mL
Cc1cccc(/C=C2\CCCc3ccccc3C2=O)c1	H37Rv	broth dilution / resazurin		inhibition	12.5 µg/mL	19%
O=C(Nc1nc(-c2ccccn2)cs1)NC1CCCCC1	H37Rv	visual reading		MIC		1.2 µM
Cc1ccc(CS/C(N)=N/N=C/c2cc(Cl)ccc2O)cc1	H37Rv	broth dilution	21 d	MIC		32 µM
Cc1ccc(/C=C2\CCc3ccccc3C2=O)cc1	H37Rv	broth dilution / resazurin		inhibition	12.5 µg/mL	0%
O=C(N=Nc1c(O)n(CO)c2ccccc12)c1ccncc1	BOVIN			MIC		3 µg/mL
N/C(=N\N=C\c1cc(Br)ccc1O)SCc1ccc(Br)cc1	H37Rv	broth dilution	14 d	MIC		16 µM
Cc1cccc(C)c1Nc1cc(-c2ccccn2)ncn1	H37Rv	visual reading		MIC		>20 µM
CCn1cc(C(=O)O)c(=O)c2cc(F)c(N3CCN(C/C(=N/O)c4ccco4)CC3)cc21	H37Rv			MIC		>6.25 µg/mL
O=C1c2ccccc2C(=O)N1Cn1c(=O)c(=O)[nH]c2ccccc21	H37Rv	resazurin		MIC		10.6 µg/mL
CC1S/C(=N/N=C2\C(=O)Nc3ccc(Br)cc32)N(C2CCCCC2)C1=O	H37Rv			MIC		>12.5 µg/mL
O=C1/C(=C/c2ccc(Br)cc2)COc2ccccc21	H37Rv	broth dilution / resazurin		inhibition	10 µg/mL	27%
CCn1cc(C(=O)O)c(=O)c2cc(F)c(N3CCN(CC(=O)c4ccco4)CC3)cc21	H37Rv			MIC		>6.25 µg/mL
NNC(=O)c1ccncc1	H37Rv			MIC		0.12 µg/mL
O=C(O)c1cn(C2CC2)c2cc(N3CCN(C/C(=N/OCc4ccccc4)c4cccs4)CC3)c(F)cc2c1=O	H37Rv			MIC		>6.25 µg/mL
C[N+](C)(C)C(=O)Nc1nc(-c2ccccn2)cs1	H37Rv	visual reading		MIC		>20 µM
CCn1cc(C(=O)O)c(=O)c2cc(F)c(N3CCN(CC(=O)c4cccs4)CC3)cc21	H37Rv			MIC		>6.25 µg/mL
CC(=O)n1c(=O)c(=O)[nH]c2ccccc21	H37Rv	resazurin		MIC		8.561 µg/mL
COc1ccc(-c2csc(NC(c3cccc([N+](=O)[O-])c3)C3CCCCC3=O)n2)cc1	H37Rv	broth dilution / agar / visual reading		MIC		12.5 µg/mL
CCCCNC1=C(C(=O)OCC)/C(=N/NC(=O)c2ccccc2O)CO1	H37Rv	BACTEC		MIC bound		>12.5 µg/mL
COC(=O)[C@]12CC[C@@]3(COC(C)=O)CC4OOC(C=C4C)[C@H]3[C@@H]1CC[C@@H]2C(C)C	CIBIN 99	resazurin		MIC		50 µg/mL
CC(C)(C)c1ccc(C(=O)Nc2nc(-c3ccccn3)cs2)cc1	H37Rv	visual reading		MIC		0.7 µM
O=C1CCCCC/C1=C\c1ccc(Br)cc1	H37Rv	broth dilution / resazurin		inhibition	12.5 µg/mL	3%
O=[N+]([O-])c1ccc(SSc2ccc([N+](=O)[O-])cn2)nc1	H37Rv	resazurin		inhibition	6.25 µg/mL	-11%
COc1ccc(-c2csc(NC(c3cccc(Cl)c3)C3CCCCC3=O)n2)cc1	H37Rv	broth dilution / agar / visual reading		MIC		12.5 µg/mL
CO/C(=N\N=C\c1cc(OC)ccc1OC)c1ccncc1	H37Rv			MIC		>20 µg/mL
CC(C)[C@H]1CC[C@H]2[C@@H]3C=C[C@](C)(O)[C@H](O)C[C@]3(C)CC[C@]12C(=O)O	CIBIN 99	resazurin		MIC		50 µg/mL
Cl.NC1CC(=O)N(Cc2ccccc2)C1=O	H37Rv	BACTEC		MIC		≥12.8 µg/mL
N[C@@H]1CN(c2c(F)cc3c(=O)c(C(=O)O)cn([C@@H]4C[C@@H]4F)c3c2Cl)CC12CC2	25 strains			MIC90		0.2 µg/mL
CC1=Nc2ccccc2/C(=C(\O)N=N)N1N	H37Rv	BACTEC		inhibition	12.5 µg/mL	4%
COc1ccc(CCNC(=O)c2ccc([N+](=O)[O-])o2)cc1OC	H37Rv			MIC90		6.25 µg/mL
N/C(=N\N=C\c1ccccc1)SCc1ccc(C(F)(F)F)cc1	H37Rv	broth dilution	21 d	MIC		62.5 µM
CSc1nc2c(N)ncnc2n1C	H37Rv	BACTEC		inhibition	12.5 µg/mL	0%
O=C(CSc1nc2ccc(Cl)cc2c(=O)n1-c1ccccc1)N=Nc1c(O)[nH]c2ccccc12	H37Rv			MIC		>12.5 µg/mL
O=C(Nc1ncc([N+](=O)[O-])s1)c1ccc(F)cc1	H37Rv			MIC90		25 µg/mL
CN[C@@H]1[C@H](O[C@H]2[C@H](O[C@H]3[C@H](O)[C@@H](O)[C@H](N=C(N)N)[C@@H](O)[C@@H]3N=C(N)N)O[C@@H](C)[C@]2(O)C=O)O[C@@H](CO)[C@H](O)[C@H]1O	MTB23 (S)			MIC		0.3 µg/mL
CC(C)(C)c1ccc(C(=O)Nc2nnc(-c3ccccn3)s2)cc1	H37Rv	visual reading		MIC		>20 µM
Cc1coc2c1C(O)C1(C)C(C)CCC(O)C1(O)C2	H37Rv	BACTEC		MIC bound		>12.5 µg/mL
COc1ccc(CNC(=O)c2nc([N+](=O)[O-])cn2C)c(OC)c1	H37Rv			MIC90		>200 µg/mL
CC(=O)OC[C@@]12CC[C@]3(C(=O)O)[C@@H](C(C)C)CC[C@H]3[C@@H]1C1C=C(C)C(C2)OO1	H37Rv	resazurin		MIC		100 µg/mL
COc1ccc(C(Nc2nc(-c3ccc(O)cc3)cs2)C2CCCCC2=O)cc1	H37Rv	broth dilution / agar / visual reading		MIC		50 µg/mL
CC1CC[C@H]2[C@@H]3CC[C@H](C(C)C)[C@@]3(C(=O)O)CC[C@@]2(C)CC1	H37Rv	resazurin		MIC		100 µg/mL
Cn1c(-c2ccc(Br)cc2)cs/c1=N\N=C1/C(=O)Nc2ccccc21.O	H37Rv			EC50		>12 µg/mL
CO/C(=N\N=C\c1ccc(OC)c(OC)c1)c1ccncc1	16PI			MIC		>20 µg/mL
Cc1c(C(=O)O)s/c(=N\N=C2/C(=O)Nc3ccccc32)n1-c1ccc(Cl)cc1.O	H37Rv			MIC		>12.5 µg/mL
NNC(=O)c1cc2c3ccccc3ncc2c2ccccc12	H37Rv	BACTEC		inhibition	12.5 µg/mL	31%
CCCCn1c(-c2ccc(OC)cc2)cs/c1=N\N=C1/C(=O)Nc2ccccc21	H37Rv			MIC		>12.5 µg/mL
O=c1[nH]c2ccccc2n(Cn2cnc3ccccc32)c1=O	H37Rv	resazurin		MIC		10.2 µg/mL
CC1OC(O)CC(N(C)C)C1O.CC1OC(O)CCC1O.CCC1CC(O)c2c(O)c3c(c(O)c2C1O)C(=O)c1cccc(O)c1C3=O	H37Rv	BACTEC		MIC bound		>12.5 µg/mL
CO[C@H]1/C=C/O[C@@]2(C)Oc3c(C)c(O)c4c(O)c(c(/C=N/N5CCN(C)CC5)c(O)c4c3C2=O)NC(=O)/C(C)=C\C=C\[C@H](C)[C@H](O)[C@@H](C)[C@@H](O)[C@@H](C)[C@H](OC(C)=O)[C@@H]1C	SIT149	resazurin		MIC		0.5 µg/mL
CO/C(=N\N=C\c1ccccc1F)c1ccncc1	16PI			MIC		>20 µg/mL
N/C(=N\N=C\c1ccccc1O)SCc1ccc(Br)cc1	H37Rv	broth dilution	21 d	MIC		32 µM
Cc1ccc(S(=O)(=O)N/N=C2\CC(C)(C)OC2(C)C)cc1	H37Rv	BACTEC		MIC bound		>12.5 µg/mL
CC1S/C(=N/N=C2\C(=O)Nc3ccc(Br)cc32)N(c2ccccc2)C1=O	H37Rv			MIC		>12.5 µg/mL
CN(C(=S)NNC(=O)C1CCC(=O)N1)c1ccccc1	H37Rv	BACTEC		MIC bound		>12.5 µg/mL
COc1ccc(CNC(=O)c2cc([N+](=O)[O-])cn2C)cc1	H37Rv			MIC90		>200 µg/mL
CO[C@H]1/C=C/O[C@@]2(C)Oc3c(C)c(O)c4c(=O)c(c5oc6cc(N7CCN(CC(C)C)CC7)cc(=O)c6nc5c4c3=C2O)NC(=O)/C(C)=C\C=C\[C@H](C)[C@H](O)[C@@H](C)[C@@H](O)[C@@H](C)[C@H](OC(C)=O)[C@@H]1C	Erdman			MBC		0.004 µg/mL
O=C1CCCCC1C(Nc1nc(-c2ccc(O)cc2)cs1)c1ccc(F)cc1	H37Rv	broth dilution / agar / visual reading		MIC		12.5 µg/mL
CCOc1ccc(-c2nc(-c3oc4ccccc4c(=O)c3OC(C)=O)cs2)cc1	H37Rv	BACTEC		MIC bound		>12.5 µg/mL
CCn1cc(C(=O)O)c(=O)c2cc(F)c(N3CCN(C/C(=N/OC)c4cccs4)CC3)cc21	H37Rv			inhibition	6.25 µg/mL	4%
O=C(Cn1nnc(N2CCOCC2)n1)N/N=C/c1ccccc1Cl	H37Rv	BACTEC		inhibition	12.5 µg/mL	27%
O=C(O)c1cn(C2CC2)c2cc(N3CCN(C/C(=N/O)c4cccs4)CC3)c(F)cc2c1=O	H37Rv			MIC		>6.25 µg/mL
CCN(CC)CCCC(C)Nc1ncnc2ncc3c(c12)CCCC3	H37Rv	BACTEC		inhibition	12.5 µg/mL	6%
CCCCN=C(N=Nc1c(O)[nH]c2ccccc12)SCC(=O)c1ccc([N+](=O)[O-])cc1	H37Rv			EC50		<12 µg/mL
Cc1ccc(NCC2(/N=C/c3ccccc3)OC(CO)C(O)C2O)cc1	H37Rv	BACTEC		inhibition	12.5 µg/mL	23%
O=C(Nc1ccccc1)c1ccc([N+](=O)[O-])o1	H37Rv			MIC90		0.1 µg/mL
O=C(O)/C=C/c1ccc(-c2cc(C(F)(F)F)cc(C(F)(F)F)c2)o1	H37Rv	BACTEC		inhibition	12.5 µg/mL	22%
COc1ccc(CCNC(=O)c2nc([N+](=O)[O-])cn2C)cc1	H37Rv			MIC90		>200 µg/mL
CC(=O)NNc1nc(C)c(C(=O)NNC(=O)C(=O)Nc2ccc(C)cc2[N+](=O)[O-])s1	H37Rv	BACTEC		inhibition	12.5 µg/mL	25%
O=C1CCCCC1C(Nc1nc(-c2ccc(O)cc2)cs1)c1ccc(Cl)cc1	H37Rv	broth dilution / agar / visual reading		MIC		12.5 µg/mL
COc1cccc2c1C(=O)c1c(O)c3c(c(O)c1C2=O)C[C@](O)(/C(C)=N/NS(C)(=O)=O)C[C@H]3OC1CC(N)C(O)C(C)O1.Cl	H37Rv	BACTEC		MIC		≥12.5 µg/mL
N/C(=N\N=C\c1ccccc1)SCc1ccccc1	H37Rv	broth dilution	21 d	MIC		125 µM
CC1CCCN(CC(O)CN2CCN(CC(O)CN3CCCC(C)C3)C(C)C2)C1	H37Rv	BACTEC		MIC		≥12.8 µg/mL
Cc1c(OCC(F)(F)F)ccnc1CSc1nc2ccccc2[nH]1	H37Rv	turbidity	14 d	MIC90		1.34 µM
CS(=O)(=O)OCCN(CCOS(C)(=O)=O)c1ccc(C=Nc2ccc(-c3cnc(-c4ccc(Cl)cc4)s3)cc2)c(Cl)c1.Cl	H37Rv	BACTEC		MIC bound		>12.5 µg/mL
COc1ccc(-c2csc(NC(c3ccccc3Cl)C3CCCCC3=O)n2)cc1	H37Rv	broth dilution / agar / visual reading		MIC		50 µg/mL

Repeating the first 10 entries:

smiles | strain | method | conditions | read-out | dose | value
C/C(=N\NC(=O)c1ccncc1)c1ccc(Cl)cc1Cl | 6 PI |  |  | MIC |  | >20 µg/mL
Cc1ccc(S(=O)(=O)NNC(=O)c2cc(C)c(C)cc2NCC(O)C(O)C(O)CO)cc1 | H37Rv | BACTEC |  | MIC bound |  | >12.5 µg/mL
N/C(=N\N=C\c1cc(Cl)ccc1O)SCc1cccc(Cl)c1 | H37Rv | broth dilution | 21 d | MIC |  | 32 µM
O=C(N=Nc1c(O)[nH]c2ccccc12)c1ccncc1 | Human sensitive isolate |  |  | MIC |  | 2.7 µg/mL
CC(C)[C@H]1CC[C@H]2[C@@H]3C=C[C@](C)(O)CC[C@]3(C)CC[C@]12C(=O)O | CIBIN 99 | resazurin |  | MIC |  | 50 µg/mL
CCCCn1c(-c2ccccc2)cs/c1=N\N=C1/C(=O)Nc2ccccc21 | H37Rv |  |  | EC50 |  | >12 µg/mL
Cc1cccc(/C=C2\CCCc3ccccc3C2=O)c1 | H37Rv | broth dilution / resazurin |  | inhibition | 12.5 µg/mL | 19%
O=C(Nc1nc(-c2ccccn2)cs1)NC1CCCCC1 | H37Rv | visual reading |  | MIC |  | 1.2 µM
Cc1ccc(CS/C(N)=N/N=C/c2cc(Cl)ccc2O)cc1 | H37Rv | broth dilution | 21 d | MIC |  | 32 µM
Cc1ccc(/C=C2\CCc3ccccc3C2=O)cc1 | H37Rv | broth dilution / resazurin |  | inhibition | 12.5 µg/mL | 0%